{
  "source": "paper doi:10.1101/571406",
  "target": "Lsr2BD (Mycobacterium tuberculosis H37Rv) (UniProt P9WIP7)",
  "assay": "fluorescence anisotropy",
  "note": "For at least one entry, the source does not settle the construct or the ends of the probe.",
  "data": [
    {"sequence": "AATTCGGCAAAATCGGTAAG (double strand) [leuS site, Alexa 488]", "values": [
      {"measurement": "Kd", "value": 400, "unit": "nM"}
    ]}
  ]
}
